PubChem BioAssay AID504761 | Drosophila RNAi Screening Center – 2011
The deposit covers about 22,000 reagents; this is an unselected part of those with a known target gene and a result. In the full data, 116 (0.52%) are marked active. 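Calls depend on retest data that are not deposited; infection was ranked per plate without normalising between plates; the unit of the infection score is not given.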 Raw values vary from plate to plate and are shown uncorrected. Further read-outs or replicates are left out here. Not given: the amount of reagent, the time to read-out.

Aim: 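Fly genes whose silencing reduces dengue virus type 2 infection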 (primary screen)
Cell system: D.Mel-2 cells from Drosophila
Reagent: long dsRNA against Drosophila genes
Challenge: infection with dengue virus type 2; dose and infection time not stated
Detection: 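Cells stained for dengue envelope protein and imaged; percent of infected cells per well on duplicate plates, ranked by infection, with stained nuclei counted for cell number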
Scale: infection score: higher = more virus-infected cells; cell count: higher = more cells in the well
Call rule: 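Very low infection ranking in both replicate wells (chance probability at most 0.065), then a retest showing infection dropped 1.5-fold or more at p below 0.05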
Meaning of the calls: active = confirmed: knock-down lowers infection; inactive = not picked or not confirmed

Gene	dsRNA	infection score, replicate 1	infection score, replicate 2	cell count, replicate 1	Outcome
CG3085	DRSC04335	12.6	45.7	6384	inactive
CG7387	DRSC10833	8.3	10.6	5274	inactive
CG6793	DRSC10714	2.29	9.85	6893	inactive
CG6793	DRSC29291		22.7	386	inactive
Ir52b	DRSC06263	11.3	9.07	6714	inactive
CG13965	DRSC02307	15.1	2.77	5251	inactive
Spag1	DRSC15331	3.85	11.8	6312	inactive
CG11504	DRSC14318	3.37	5.97	6181	inactive
Pex5	DRSC18552	5.25	17.2	5411	inactive
Pex5	DRSC26136	2.12	2.14	6591	inactive
egr	DRSC06233	6.8	21.1	6541	inactive
Iris	DRSC00663	12.6	2.98	5784	inactive
Ugt305A1	DRSC08541	11.4	5.43	5722	inactive
Ugt305A1	DRSC26426	1.78	2.36	4765	inactive
Ser6	DRSC20574	11.6	3.44	6245	inactive
Ser6	DRSC27628	33.6	2.93	5036	inactive
CG30049	DRSC21345	7.88	5.92	5872	inactive
CG30049	DRSC26709	2.03	9.25	6243	inactive
CG31265	DRSC15745	3.73	4.07	6591	inactive
CG31265	DRSC28592	8.61	10.5	3564	inactive
Cpr11A	DRSC19861	1.64	2.13	6515	inactive
Cpr11A	DRSC26786	3.48	5.99	6378	inactive
Rtca	DRSC18517	3.29	5.88	6257	inactive
CG1492	DRSC19605	10.1	3.23	5937	inactive
CG14153	DRSC10155	0.73	1.65	5882	inactive
CG14153	DRSC22595	7.71	7.15	6716	inactive
List	DRSC06520	1.78	0.55	6131	inactive
Rdh1	DRSC06812	9.85		6667	inactive
CG8204	DRSC07106	6.81	2.53	6802	inactive
Uba4	DRSC02194	5.82	13.1	6616	inactive
Uba4	DRSC27964	22.9	4.25	5636	inactive
ear	DRSC15675	20.6	27.9	5592	inactive
ear	DRSC24291	4.48	5.9	7146	inactive
Creld	DRSC00308	14.6	20.1	6575	inactive
Creld	DRSC29338		13.4	304	inactive
CG31050	DRSC13883	1.39	4.28	6096	inactive
RhoU	DRSC17803	7.08	4.74	6311	inactive
RhoU	DRSC17804	7.83	4.46	6526	inactive
RhoU	DRSC22159	24.8	6.12	5502	inactive
RhoU	DRSC22396	1.89	3.24	5861	inactive
RhoU	DRSC25197	24.1	15.8	6200	inactive
RhoU	DRSC28919	13.4	15.1	5516	inactive

Laid out differently: 2 of the entries above.
Uba4 [DRSC02194]
- infection score, replicate 1: 5.82
- infection score, replicate 2: 13.1
- cell count, replicate 1: 6616
- Outcome: inactive

Uba4 [DRSC27964]
- infection score, replicate 1: 22.9
- infection score, replicate 2: 4.25
- cell count, replicate 1: 5636
- Outcome: inactive
